Source: article PMC8605023 (Nature Communications, 2021)

Test system: G3BP1-YFP
Assay: AP-MS of G3BP1-YFP with N wt or N 3A peptide competition
Parameters: species or system Human
Conditions: for T-test Difference (Mutant vs WT inhibitor, log2): Peptide inhibitor competition, host protein co-purified, 4 replicates each; for Student's T-test Difference mut_wt: same quantity as T-test Difference column, unrounded

Row | Substance | T-test Difference (Mutant vs WT inhibitor, log2) [log2] | Student's T-test Difference mut_wt
1 | NUP188 | 9.72 | 9.723
2 | POM121 | 10.02 | 10.0246
